Experiment: Readout interference test: compound added after the enzymatic reaction ran to completion
Details: compound added after 1 h Nsp15/substrate reaction

SMILES	autofluorescence
CO[C@@H]1[C@@H](OC(N)=O)[C@@H](O)[C@H](Oc2ccc3c(O)c(NC(=O)c4ccc(O)c(CC=C(C)C)c4)c(=O)oc3c2C)OC1(C)C [novobiocin sodium]	strong autofluorescence
COc1cccc2c1C(=O)c1c(O)c3c(c(O)c1C2=O)C[C@@](O)(C(C)=O)C[C@@H]3O[C@H]1C[C@H](N)[C@H](O)[C@H](C)O1 [daunorubicin]	strong autofluorescence

From PMC12079475, “Identification, validation, and characterization of approved and investigational drugs interfering with the SARS‐CoV‐2 endoribonuclease Nsp15” (Protein Science : A Publication of the Protein Society, 2025)
